Measurements reported in PubChem BioAssay AID1259414 (Drosophila RNAi Screening Center, 2018)

Assay: 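Genome-wide screen for host control of endosymbiont load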 (primary screen)
Cells: Drosophila JW18 cells infected with Wolbachia
Reagent: long dsRNA against Drosophila genes, 0.25 µg dsRNA per well of a 384-well plate
Timing: 5 days
Challenge: cells persistently infected with Wolbachia before knock-down; no added drug
Read-out: 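Automated imaging of bacterial rRNA staining divided by host cell count, reported as plate-normalised robust z-score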
Scale: Wolbachia per cell robust z: higher = more Wolbachia per host cell than the plate typical
Active means: 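Hit when robust z is 1.5 or more, or -1.5 or less, in at least two of three replicates; excludes dsRNAs with several or no targets, genes not expressed in JW18 and well A1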
In all, the deposit lists about 24,000 reagents; below is an unselected part of those that have a named target and a result. Of all reagents, about 1,210 (5%) got an active call. 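Inactive calls also include excluded dsRNAs with several or no targets, genes unexpressed in JW18, and well A1, regardless of score.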 Entries without a mark were called inactive. Reagents against one gene are numbered here. Names joined by + are all predicted targets of the reagent.

The opening 8 entries, to show the layout:
target,reagent no.,"Wolbachia per cell robust z, rep 1","Wolbachia per cell robust z, rep 2","Wolbachia per cell robust z, rep 3"
CG32320,1,0.364,-1.06,0.235
CG32320,2,0.534,-0.17,0.526
CG3386,1,-0.787,-1.08,-0.938
CG3386,2,1.1,0.117,0.149
CG3918,1,-1.38,-0.519,-0.573
CG3918,2,0.198,1.57,1.03
Nil (Nilkantha),1,0.498,0.339,-1.46
Nil (Nilkantha),2,1.07,1.36,-7.48

The list itself, repeating the preview:
target,reagent no.,"Wolbachia per cell robust z, rep 1","Wolbachia per cell robust z, rep 2","Wolbachia per cell robust z, rep 3"
CG32320,1,0.364,-1.06,0.235
CG32320,2,0.534,-0.17,0.526
CG3386,1,-0.787,-1.08,-0.938
CG3386,2,1.1,0.117,0.149
CG3918,1,-1.38,-0.519,-0.573
CG3918,2,0.198,1.57,1.03
Nil (Nilkantha),1,0.498,0.339,-1.46
Nil (Nilkantha),2,1.07,1.36,-7.48
e(y)3 (enhancer of yellow 3),1,0.296,-0.924,1.59
e(y)3 (enhancer of yellow 3),2,1.16,-0.722,0.162
Octalpha2R (alpha2-adrenergic-like octopamine receptor),1,-1.23,-7.4,-2.92
Octalpha2R (alpha2-adrenergic-like octopamine receptor),2,0.223,0.41,-1.51
Tango9 (Transport and Golgi organization 9),1,0.82,1.16,1.41
Ant2 (Adenine nucleotide translocase 2),1,0.511,0.59,1.4
Ant2 (Adenine nucleotide translocase 2),2,-2.92,-1.19,-0.355
Obp19a (Odorant-binding protein 19a),1,-0.149,0.145,-1.08
sip2 (septin interacting protein 2),1,-0.215,-1.57,0.907
asRNA:CR43469 + Balat,1,-1.55,0.482,0.118
CG30008,1,0.544,-0.868,0.711
CG30008,2,0.0556,0.199,0.245
Gcn5 (Gcn5 acetyltransferase),1,1.45,1.31,1.56
Gcn5 (Gcn5 acetyltransferase),2,1.58 (active),1.07,1.9
CG16852,1,-0.478,-1,-0.666
CG4520,1,0.308,0.968,0.664
CG4520,2,0.283,-0.198,0.845
CG16894,1,-3.29,-1.37,-2.37
CG16894,2,-0.793,-0.751,-1.68
fiz (fezzik),1,-0.416 (active),-7.16,-1.68
Task6 (TWIK-related acid-sensitive K[+] channel 6),1,-0.929,0.0128,-7.29
CG10814,1,0.466,0.766,-0.274
"DCTN6-p27 (Dynactin 6, p27 subunit)",1,-1.69,1.4,0.372
"DCTN6-p27 (Dynactin 6, p27 subunit)",2,-0.204,-0.665,-0.677
"DCTN6-p27 (Dynactin 6, p27 subunit)",3,0.37,0.525,-0.371
M7BP (Myosin-7a binding protein),1,-1.24,-0.163,-2.8
M7BP (Myosin-7a binding protein),2,-1.82 (active),-1.64,-1.14
M7BP (Myosin-7a binding protein),3,0.348,-0.767,-0.327
M7BP (Myosin-7a binding protein),4,0.57,-0.0036,0.857
M7BP (Myosin-7a binding protein),5,1.56,-5.99,1.44
M7BP (Myosin-7a binding protein),6,0.174,-1.18,-1.68
CG31898,1,-0.252,-0.907,0.0829
CG13743,1,-1.95,-0.746,-0.208
CG13743,2,0.375,0.908,0.0664
CG13743,3,1.01,-0.234,-0.566
Tehao,1,-0.84,-0.462,-1.59
Tehao,2,-0.494,0.652,0.429
l(3)neo43 (lethal (3) neo43),1,-0.0392,0.52,0.0587
Cks30A (Cyclin-dependent kinase subunit 30A),1,-9.03,0.821,-0.622
mei-41 (meiotic 41),1,0.65,0.178,-2.04
mei-41 (meiotic 41),2,0.958,0.545,0.717
CG12826,1,-1.87,0.385,0.0958
asRNA:CR42254 (antisense RNA:CR42254),1,0.0702,0.341,-0.745
ph-p (polyhomeotic proximal),1,-0.3,0.599,-6.28
CG13058,1,-0.827,0.342,0.271
CG13058,2,2.45,0.914,1.37
Als2 (Amyotrophic lateral sclerosis 2),1,-0.616,0.287,0.783
CG8908,1,-0.61,-1.07,-0.0927
rgn (regeneration),1,0.315,0.489,0.0366
CG10804,1,1.15,-0.681,0.294
mip120 (Myb-interacting protein 120),1,-3.38,-0.338,0.595
mip120 (Myb-interacting protein 120),2,-7.38,1.28,0.833
Gnpnat (Glucosamine-phosphate N-acetyltransferase),1,-0.416,0.046,0.259
sowah (sosondowah),1,0.238,0.0407,-2.21
sowah (sosondowah),2,-0.706,1.52,0.44
Pat1 (Protein interacting with APP tail-1),1,0.893,-2.95,1.12
Pat1 (Protein interacting with APP tail-1),2,-0.201,-0.46,-0.616
CG7702,1,0.162,-0.000619,2.04
CG7702,2,0.44,-0.0309,-1.24
CG1773,1,-1.82,-0.119,-8.72
ng3 (new glue 3),1,-1.34,-0.46,-0.307
ng3 (new glue 3),2,-1.05,1.95,-0.0356
CG31706,1,0.324,1.1,-0.166
CG33262,1,-0.357,-1.57,-2.61
CG33490,1,0.857,0.531,0.214
numb,1,0.109,0.556,-0.607
numb,2,0.25,0.547,-0.332
CG6126,1,0.833,-3.26,0.8
CG4073,1,0.403,-0.854,0.225
Hr39 (Hormone receptor-like in 39),1,1.07,0.92,-2.35
Hr39 (Hormone receptor-like in 39),2,0.615,0.342,-0.235
strat (stratum),1,0.116,-7.42,-0.927
Vago,1,-1.25,0.865,-0.0289
Vago,2,0.824,0.736,1.11
CG15710,1,-3.88,0.496,0.0606
PIG-S + sud1,1,-1.46,-2.68,-1.41
PIG-S + sud1,2,-1.12,0.411,-1.28
pdm3 (pou domain motif 3),1,-0.562,-0.531,-0.246
pdm3 (pou domain motif 3),2,0.433,0.696,1.04
pdm3 (pou domain motif 3),3,0.978,0.425,0.4
pdm3 (pou domain motif 3),4,0.863,-0.147,0.932
